PMC3032773, “Solid Tumor-Targeted Infiltrating Cytotoxic T Lymphocytes Retained by a Superantigen Fusion Protein” (2011)

Target: EGF receptor of S180 cells (mouse (endogenous in S180)) (UniProt Q01279)
Assay: flow cytometry on cells

With “LSS670-labeled EGF-SEA (from UniProt P0A0L2 25-257)” the percent of S180 cells coated (125 pmol EGF-SEA) was 95%.
